Data as given in publication PMC11345844, “Non-Covalent Inhibitors of SARS-CoV-2 Papain-Like Protease (PLpro): In Vitro and In Vivo Antiviral Activity” (Journal of Medicinal Chemistry, 2024).

Test system: SARS-CoV-2 Omicron BA.1
Experiment: microbe, parasite or virus in culture
Conditions: Severe acute respiratory syndrome coronavirus 2, 48 h, read-out: EC50 (antiviral activity toward BA.1)

Cc1ccc(NC2CNC2)cc1C(=O)N[C@H](C)c1cccc(-c2ccc(CNC3CCCC3)s2)c1 [Compound 10]
EC50: 2500 ± 150 nM
